Experimental findings from PubChem BioAssay AID704 (The Scripps Research Institute Molecular Screening Center, 2007) are described below.

The chains behind the UniProt entries cited, without tags or fusion partners. Where a name states a change or a piece, a line headed by the entry shows the natural chain unless it says otherwise.
UniProt P05866: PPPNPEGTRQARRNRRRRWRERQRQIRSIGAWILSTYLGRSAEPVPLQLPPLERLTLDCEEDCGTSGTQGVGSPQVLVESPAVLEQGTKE

The entries are a selection whose mix differs from that of the whole data set. Calls of active or inactive are those of the source.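 The calls were made as follows: active = inhibition above the screen-wide mean plus 3 SD (cut at about 35% in these data); inactive = the rest.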

For the assay, the target named is Protein Rev (Human immunodeficiency virus type 1 group M subtype B (isolate WMJ22)) (UniProt P05866). Nature of the assay: disruptors of Rev peptide-RRE RNA complex – biochemical, FRET, protein-RNA interaction, primary screen (AID 704).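 Also: 0% = median DMSO wells and 100% = median Neomycin B control wells.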 To be noted: Rev peptide-RRE RNA binding, at 8 µM, active compounds read high. In outline:
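Test system – labelled RRE RNA duplex and labelled Rev peptide · Signal – fluorescein-to-Cy5 FRET, 480 nm excitation · Evaluation – % inhibition of FRET ratio versus controls · Benchmarks – DMSO low control, neomycin B high control · Incubation – 5 min RNA-compound premix plus 15 min binding step, 25 °C · Medium – HEPES pH 7.5 salt buffer with EDTA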
`CCOC(=O)NC(Sc1ccccc1)C(Cl)(Cl)Cl` (stereo not drawn): the inhibition was inactive: 9.96%. As for `COC(=O)c1cc2c(s1)N=C(c1ccccc1)N(C)P2(=O)N1CCOCC1` (stereo not drawn), the figure is inactive: 7.49%.

In the case of `CCC(=O)N1C2C3N(C(=O)CC)C1C1N(C(=O)CC)C(C(N1C(=O)CC)N3C(=O)CC)N2C(=O)CC`, the inhibition was inactive: 3.08%. To `O=P1(Nc2nc3ccc(Cl)cc3s2)COc2ccccc2O1` (stereo not drawn) belongs inactive: 1.75%.

Turning to `c1nnnn1CCn1cnnn1`, the inhibition is inactive: 5.21%.

With `O=P(Nc1nccs1)(c1ccccc1)c1ccccc1`, the inhibition is inactive: -4.31%. To `O=C(OC1CN2CCC1CC2)c1cccc(Cl)c1` (stereo not drawn) belongs inactive: 0.88%; to `O=[N+]([O-])c1cccc2n[nH]nc12`, inactive: 5.86%; to `CC(=O)N1C2C3N(C(C)=O)C1C1N(C(C)=O)C(C(N1C(C)=O)N3C(C)=O)N2C(C)=O`, inactive: 3.38%. As for `CCc1nc2c(n1)c1c(non1O)c1c2no[n+]1[O-]`, the inhibition is inactive: 5.52%.

Take `CC1CCN(C(=O)Oc2c(Cl)cc(Cl)c3cccnc23)CC1`: the inhibition was inactive: 6.69%.

With `CN1CCCC(OC(=O)C(c2ccccc2)c2ccccc2)C1` (stereo not drawn), the inhibition is inactive: -3.79%.

For the compound `CC(C)CC(=O)NC(Sc1ccc(Cl)cc1)C(Cl)(Cl)Cl` (stereo not drawn), the inhibition was inactive: 12.6%. For the compound `Oc1ccccc1CNc1ccccn1`, the inhibition is inactive: 5.73%. On to `Cc1c2non([O-])c-2c(C)[n+](=O)[n+]1[O-]`, for which the inhibition is inactive: -3.21%. `CCOP(=O)(Nc1ccccc1)OCC`: the inhibition is inactive: 4.31%. As for `CCN(CC)C(=S)SC(NC=O)C(Cl)(Cl)Cl` (stereo not drawn), the figure is inactive: -1.29%; as for `ClCCSc1nnc(-c2cccnc2)o1`, inactive: 3.76%. For the compound `O=C(OC1CN2CCC1CC2)C12CC3CC(CC(C3)C1)C2` (stereo not drawn), the inhibition is inactive: -1.19%. As for `O=C(COc1ccccc1)OC1CN2CCC1CC2` (stereo not drawn), the inhibition is inactive: 8.41%. To `COP1(=S)c2c(C)nn(CCC#N)c2N=C(c2ccc(F)cc2)N1C` (stereo not drawn) belongs inactive: 3.69%; to `CCC(C)N(CC(C)C)C(=S)SC(NC(C)=O)C(Cl)(Cl)Cl` (stereo not drawn), inactive: 0.97%; to `Cc1nn(-c2ccccc2)c2c1P(=O)(N1CCOCC1)N(C)C(c1ccccc1)=N2` (stereo not drawn), inactive: 2.89%. As for `O=P1(Nc2ccc(Br)cn2)COc2ccccc2OC1`, the figure is inactive: 4.71%; as for `Cc1ccc(OCC(=O)OC2CN3CCC2CC3)cc1` (stereo not drawn), inactive: 0.2%.

Turning to `O=P1(Nc2ncccn2)COc2ccccc2OC1`, the inhibition was inactive: 0.81%.

Regarding `Clc1n[nH]nc1-c1nn[nH][15n]1`, the inhibition is inactive: 3.86%. On to `O=P1(Nc2ccccn2)COc2ccccc2OC1`, for which the inhibition was inactive: 5.2%. To `CC1(CBr)Cn2c(nc3ccccc3c2=O)S1` (stereo not drawn) belongs inactive: 2.21%; to `Cc1cccc(OCC(=O)OC2CN3CCC2CC3)c1` (stereo not drawn), inactive: 9.25%. To `CCOP1(=S)c2c(C)nn(CCC#N)c2N=C(c2ccccc2F)N1C` (stereo not drawn) belongs inactive: 7.79%.

With `O=[N+]([O-])c1ccc2c(c1)nnn2O`, the inhibition is inactive: 1.94%.

`CCOP1(=S)c2c(C)nn(CCC#N)c2N=C(c2ccc(F)cc2)N1C` (stereo not drawn): the inhibition was inactive: 8%.
